Compound potency records, mixed from different reports. Data source: NIAID ChemDB in PubChem.

All rows: enzyme or target tests; organism: HIV-1; target: Integrase; measure: IC50

Blank or dashed fields: not listed here. a–b is a range or a potency band. ICn is the concentration giving n% inhibition. Lines come from different laboratories, so protocols vary.

smiles	strain or isolate	mutations	method	result
CC1(C)CCC[C@]2(C)[C@H]3C[C@](C)(C=O)[C@@H](C[C@H](O)c4ccoc4)[C@]3(C)CC[C@@H]12	-	-	binding	9.6 µM
O=C(O)/C=C/c1ccc(N=Nc2c(S(=O)(=O)O)cc3cc(S(=O)(=O)O)c(N=Nc4ccc(/C=C/C(=O)O)cc4)c(O)c3c2O)cc1	-	-	strand transfer	0.75 µM
CC(C)[C@H](NC(=O)OCc1ccccc1)C(=O)N[C@@H](Cc1ccccc1)C(=O)C(F)(F)C(=O)N1CCc2ccccc2C1	-	-	3′ processing	500 µM
O=C(Nc1ccc2c(O)c(N=Nc3ccc(C(=O)O)cc3)c(S(=O)(=O)O)cc2c1)Nc1ccc2c(O)c(N=Nc3ccc(C(=O)O)cc3)c(S(=O)(=O)O)cc2c1	-	-	3′ processing	0.35 µM
O=C1c2c(O)c(=O)c(-c3nccs3)cn2CCN1CCCc1cccc(F)c1	-	-	ELISA	0.01–0.1 µM
Cc1cc(C(=O)O)ccc1N=Nc1c(S(=O)(=O)O)cc2cc(NC(=O)Nc3ccc4c(O)c(N=Nc5ccc(C(=O)O)cc5C)c(S(=O)(=O)O)cc4c3)ccc2c1O	-	-	strand transfer	0.7 µM
C#Cc1cccnc1/C=C/C(=O)/C=C/c1ncccc1C#C	-	-	-	3 µM
NCCCC[C@H](NC(=O)CNC(=O)[C@H](Cc1cnc[nH]1)NC(=O)[C@H](CC(N)=O)NC(=O)[C@H](Cc1cnc[nH]1)NC(=O)[C@@H](N)Cc1ccccc1)C(=O)N[C@@H](CCC(N)=O)C(=O)O	-	-	strand transfer	50 µM
CCCCn1cncc1-c1ccc(C(C)(C)C)cc1	-	-	strand transfer / luminescence	22.4 µM
CC(C)(C)[C@H](NC(=O)OCc1ccccc1)C(=O)N[C@@H](Cc1ccc(OCc2ccccc2)cc1)C(=O)C(F)(F)C(=O)NCc1ccccc1	-	-	3′ processing	21 µM
CC(C)(C)c1nc(C(=O)NCc2ccc(F)cc2)c(O)c(=O)n1CCCNC(=O)C1CC1	-	-	3′ processing	>20 µM
O=c1ccn2c(CO)cn(Cc3ccc(Cl)c(Cl)c3)c(=O)c2c1O	-	-	ELISA	<0.01 µM
COC(=O)c1cc(O)c(O)c(O)c1	-	-	3′ processing	228.5 µM
CC1=C(C#N)c2nc(N)c(C#N)c(C)c2/C1=C/c1ccc(-c2ccc(Cl)c(C(=O)O)c2)o1	-	-	3′ processing	9 µM
O=C(NCc1ccc(F)cc1)C1C(=O)N(O)C(=O)c2ccccc21	-	-	ELISA / strand transfer	0.099 µM
O=C(O)Cc1cn2ccn(Cc3cccc(Cl)c3)c(=O)c2c(O)c1=O	-	-	ELISA	0.01–0.1 µM
COc1cccc2c1c(/C(O)=C\C(=O)C(=O)O)cn2Cc1cc(F)ccc1F	IIIB	-	strand transfer / AlphaScreen	0.03 µM
COC(=O)c1cc(NC(=O)c2cc(NC(=O)c3nc(NC(=O)CCCN)cn3C)cn2C)cn1C	-	-	3′ processing	130 µM
O=C(NCc1ccc(Cl)c(Cl)c1)c1nc2sc(CN3CCOCC3)cn2c(=O)c1O	-	-	strand transfer	0.001–1 µM
CNC(=O)NC[C@H]1O[C@@H](n2cnc3c(NC(=O)Nc4ccccc4)ncnc32)[C@H](O)[C@@H]1CC(=O)O	NL4-3	-	strand transfer	>10 µM
CCCCn1cncc1-c1cccc(OC)c1	-	-	strand transfer / luminescence	30.5 µM
O=C1NC(=O)C(c2ccc(C(=O)O)o2)=C1c1ccc(C(=O)O)o1	-	-	strand transfer	58 µM
Cn1ccn2c(=O)c(O)c(C(O)NCc3ccc(F)cc3)nc12	-	Wild type	strand transfer	0.1–1 µM
COC(=O)CCC/C=C(/c1ccc(OC)c(C(C)=O)c1)c1ccc(OC)c(C(=O)OC)c1	-	-	3′ processing	2.1 µM
O=C(/C=C/c1ncccc1N1CCOCC1)/C=C/c1ncccc1N1CCOCC1	-	-	-	>20 µM
Cc1cn2c(=O)c(O)c(-c3ncc(Cc4ccc(F)cc4)s3)nc2s1	-	-	strand transfer	<0.001 µM
COc1cccc2c1c(/C(O)=C\C(=O)C(=O)O)cn2Cc1ccccc1F	IIIB	-	strand transfer / AlphaScreen	0.06 µM
CN(C)C(=O)C(=O)N(C)C1CN(CCc2ccccc2)CCn2c1nc(C(=O)NCc1ccc(F)cc1)c(O)c2=O	-	-	ELISA	<10 µM
O=C(O)[C@H]1O[C@@H](Oc2cc(O)c3c(=O)cc(-c4ccc(O)cc4)oc3c2)[C@H](O)[C@@H](O)[C@@H]1O	-	-	-	51.3 µg/mL
CNC(=O)c1cn2c(c(O)c1=O)C(=O)N(Cc1cccc(Cl)c1F)CC2	-	-	ELISA	0.01–0.1 µM
O=C(O)c1ccc(C2=C(c3ccc(C(=O)O)o3)C(=O)N(c3ccc(O)cc3)C2=O)o1	-	-	3′ processing	5.3 µM
C=C(CC[C@@H](C)[C@H]1CC[C@@]2(C)C3C[C@H](OS(=O)(=O)[O-])[C@H]4C[C@H](OS(=O)(=O)[O-])[C@@H](OS(=O)(=O)[O-])C[C@]4(C)C3=CC[C@]12C)C(C)C.[Na+].[Na+].[Na+]	-	-	-	2.3 µg/mL
CN(C)CCCNC(=O)c1cc(NC(=O)c2cc(NC(=O)c3cc(NC(=O)CCCNC(=O)c4cc(NC(=O)c5cc(NC(=O)c6cc(NC(=O)CCCN)cn6C)cn5C)cn4C)cn3C)cn2C)cn1C	-	-	3′ processing	53 µM
CC(C)[C@H](NC(=O)OCc1ccccc1)C(=O)N[C@@H](Cc1ccccc1)C(=O)C(F)(F)C(=O)N1CCOCC1	-	-	3′ processing	500 µM
CC[NH+](CC)CC.Cc1cc(OB(F)F)c(C(=O)/C=C/C=C2\O[B-](F)(F)Oc3cc(C)oc(=O)c32)c(=O)o1	-	-	3′ processing	13 µM
Cc1cccnc1/C=C/C(=O)/C=C/c1ncccc1C	-	-	-	4 µM
CN1CCN(Cc2cn3c(=O)c(O)c(C(=O)NCc4ccc(Cl)c(Cl)c4)nc3s2)CC1	-	-	strand transfer	<0.001 µM
O=C(O)/C(O)=C/c1ccnc(CCc2ccccc2)c1	-	-	strand transfer	>100 µg/mL
COC(=O)c1nc(NC(=O)c2cc(NC(=O)c3cc(NC(=O)CCCN)cn3C)cn2C)cn1C	-	-	3′ processing	130 µM
O=C(/C=C/c1ncccc1-c1ccccc1)/C=C/c1ncccc1-c1ccccc1	-	-	-	5.2 µM
CC1(C)c2nc(C(=O)NCc3ccc(F)cc3)c(O)c(=O)n2CCN1CC(N)=O	-	-	ELISA	<10 µM
COc1cccc2c1c(/C(O)=C\C(=O)C(=O)O)cn2Cc1ccc(F)cc1	IIIB	-	strand transfer / AlphaScreen	0.04 µM
CN1CCn2c(nc(C(=O)NCc3ccc(F)cc3)c(O)c2=O)C(N(C)Cc2ccccc2)C1	-	-	ELISA	<10 µM
NS(=O)(=O)c1ccc(NC(=O)c2ccccc2SSc2ccccc2C(=O)Nc2ccc(S(N)(=O)=O)cc2)cc1	-	-	-	>100 µM
COc1cccc(/C=C/C(=O)/C=C/c2cccc(OC)n2)n1	-	-	-	>20 µM
Cn1ccn2c(=O)c(O)c(-c3ncc(Cc4ccc(Cl)cc4)s3)nc12	-	E92Q/N155H	strand transfer	0.1–1 µM
O=C(O)CC(O)CN=Cc1ccccc1O	-	-	-	>100 µM
O=c1cc(Sc2ccc(Cl)cc2)[nH]c(=O)n1O	-	-	strand transfer / absorbance	0.64 µM
CC(CC[C@@H](C)[C@H]1CCC2C3C[C@H](OS(=O)(=O)[O-])[C@H]4C[C@H](OS(=O)(=O)[O-])[C@@H](OS(=O)(=O)[O-])C[C@]4(C)C3CC[C@@]21C)C(C)(C)C.[Na+].[Na+].[Na+]	-	-	-	0.4 µg/mL
COc1cc2c(c(O)c1O)C1(C)Oc3c(O)c(OC)cc(CO)c3C(C)(O1)C2=O	-	-	strand transfer	1.1 µM
CC(C)(C)c1ccc(-c2cncn2C2CCCCC2)cc1	-	-	strand transfer / luminescence	14.6 µM
[N-]=[N+]=NC[C@H]1O[C@@H](n2cnc3c(NC(=O)Nc4ccccc4)ncnc32)[C@@H]2OC(=O)C[C@@H]21	NL4-3	-	3′ processing	>10 µM
COc1cc(C(=O)O)ccc1N=Nc1c(S(=O)(=O)O)cc2cc(NC(=O)Nc3ccc4c(O)c(N=Nc5ccc(C(=O)O)cc5OC)c(S(=O)(=O)O)cc4c3)ccc2c1O	-	-	3′ processing	0.5 µM
Cn1ccn2c(=O)c(O)c(-c3ncc(Cc4ccc(F)c(Cl)c4)s3)nc12	-	E92Q/N155H	strand transfer	0.1–1 µM
O=C(O)C1CN(Cc2ccc(Cl)c(Cl)c2)C(=O)c2c(O)c(=O)ccn21	-	-	ELISA	0.01–0.1 µM
CC1c2nc(C(=O)NCc3ccc(F)cc3)c(O)c(=O)n2CCN1C(=O)C(=O)N(C)C	-	-	ELISA	<10 µM
O=C1c2c(O)c(=O)c(-c3nccs3)cn2CCN1CCCc1ccccc1Cl	-	-	ELISA	<0.01 µM
COC1=C(c2c(OC)cc3cc4cc(C)oc(=O)c4c(O)c3c2O)C(=O)c2c(O)cc(C)cc2C1=O	-	-	absorbance	6 µM
CC(=O)OC1=C(C(=O)[C@@H]2C3C(C=C(C)[C@H]2C[C@H]2OC4(CC[C@H](C)[C@@H](c5cc(OC(C)=O)cc(OC(C)=O)c5)O4)[C@@H](C)C[C@@H]2C)CC[C@@H](OC(C)=O)[C@@H]3C)C(=O)NC1[n+]1ccccc1	-	-	strand transfer	30 µM
O=C(O)/C=C/c1cc(CCc2ccccc2)ncn1	-	-	strand transfer	>100 µg/mL
CC(C)(C)C(=O)c1cn2c(c(O)c1=O)C(=O)N(Cc1cccc(Cl)c1F)CC2	-	-	ELISA	0.01–0.1 µM
CC(C)(C)c1nc(C(=O)NCc2ccc(F)cc2)c(O)c(=O)n1CCCNS(=O)(=O)c1ccccc1	-	-	strand transfer	20 µM
O=C(O)/C(O)=C/c1cccc(OCc2ccccc2)c1	-	-	strand transfer	>100 µg/mL
COc1ccnc2[nH]cc(C(=O)C(=O)N3CCN(C(=O)c4ccccc4)C[C@H]3C)c12	-	-	-	>500 µM
O=C(/C=C/c1ncc(Cl)cc1Cl)/C=C/c1ncc(Cl)cc1Cl	-	-	-	>20 µM
O=c1ccn2ccn(Cc3cccc(Cl)c3)c(=O)c2c1O	-	-	ELISA	0.01–0.1 µM
Cn1ccn2c(=O)c(O)c(-c3ncc(Cc4ccc(Cl)c(Cl)c4)s3)nc12	-	G140S/Q148H	strand transfer	0.1–1 µM
O=C(/C=C/c1ccc2ccccc2n1)/C=C/c1ccc2ccccc2n1	-	-	-	1.2 µM
CCOC(=O)c1nc(NC(=O)c2nc(NC(=O)c3nc(NC(=O)CCCNC(=O)c4nc(NC(=O)c5nc(NC(=O)c6nc(NC(=O)CCCN)cn6C)cn5C)cn4C)cn3C)cn2C)cn1C	-	-	3′ processing	20 µM

5 of the rows above, restated:

| smiles | strain or isolate | mutations | method | result |
|---|---|---|---|---|
| CC(C)(C)c1ccc(-c2cncn2C2CCCCC2)cc1 | - | - | strand transfer / luminescence | 14.6 µM |
| CC1c2nc(C(=O)NCc3ccc(F)cc3)c(O)c(=O)n2CCN1C(=O)C(=O)N(C)C | - | - | ELISA | <10 µM |
| CC(C)[C@H](NC(=O)OCc1ccccc1)C(=O)N[C@@H](Cc1ccccc1)C(=O)C(F)(F)C(=O)N1CCOCC1 | - | - | 3′ processing | 500 µM |
| C#Cc1cccnc1/C=C/C(=O)/C=C/c1ncccc1C#C | - | - | - | 3 µM |
| CC[NH+](CC)CC.Cc1cc(OB(F)F)c(C(=O)/C=C/C=C2\O[B-](F)(F)Oc3cc(C)oc(=O)c32)c(=O)o1 | - | - | 3′ processing | 13 µM |